A mixed list of measured activities; the numbers were collected in NIAID ChemDB.

All rows: whole-cell or culture tests; species: HIV-2; method: syncytia; endpoint: EC50

ECn: concentration that inhibits the pathogen or its effect by n%. Blank or dashed fields: not listed here. Lines come from different laboratories, so protocols vary.

SMILES	cell line	strain	value
CC(C)(C)[Si](C)(C)OC[C@H]1O[C@@H](n2cnc3c(=O)n(CC(=O)O)cnc32)[C@H](O)[C@@H]1O[Si](C)(C)C(C)(C)C	CEM	ROD	9.2 µM
O=C1c2ccccc2C(=O)N1CCC12CC3CC(CC(C3)C1)C2	CEM	ROD	>4 µg/mL
Cc1ccc(C)c(C(CCCCCCBr)S(=O)(=O)c2cccc[n+]2[O-])c1	CEM	ROD	>0.8 µg/mL
CCCCCCCCCC[N+](C)(C)CCCNCc1c(O)cc2c(c1O)-c1cc(ccc1O)[C@H]1NC(=O)[C@@H]3NC(=O)C4NC(=O)[C@@H](Cc5ccc(c(Cl)c5)Oc5cc3cc(c5O)Oc3ccc(cc3Cl)[C@@H](O)[C@H](NC1=O)C(=O)N[C@@H]2C(=O)O)NC(=O)[C@H](N)c1ccc(O)c(c1)Oc1cc(O)cc4c1	CEM	EHO	6.8 µM
CCOC(=O)Cc1c(N)nc(N)nc1OCCOCP(=O)(O)O	CEM	ROD	78 µM
CSC1=NS(=O)(=O)N([C@@H]2O[C@H](CO)[C@@H](O)[C@H](O)[C@H]2O)C(=O)N1	CEM + CEM-SS	ROD	>200 µg/mL
c1ccc(COC[C@@H]2CC[C@H](COc3ncnc4nc[nH]c34)O2)cc1	CEM	ROD	>2 µM
O=C1c2cccc([N+](=O)[O-])c2C(=O)N1C12CC3CC(CC(C3)C1)C2	CEM	ROD	>4 µg/mL
NC/C=C\Cn1cnc2c(N)ncnc21	CEM		≥20 µM
N#CCc1c(N)nc(N)n(CCOCP(=O)(O)O)c1=O	CEM	ROD	≥300 µM
Cc1cn([C@H]2C[C@H](SS[C@H]3C[C@H](n4cc(C)c(=O)[nH]c4=O)O[C@@H]3CO)[C@@H](CO)O2)c(=O)[nH]c1=O	CEM	ROD	60 µM
CCCCCCCCCCCC(=O)Oc1ccc(COP(=O)(OCc2ccc(OC(=O)CCCC)cc2)OP(=O)(O)OCC2C=C[C@H](n3cc(C)c(=O)[nH]c3=O)O2)cc1	CEM/TK-	ROD	6.31 µM
O=C(O)c1ccc(CS(=O)(=O)c2cccc[n+]2[O-])cc1	CEM	ROD	≥100 µg/mL
Cc1cn([C@@H]2O[C@H](CO[Si](C)(C)C(C)(C)C)C3(OS(=O)(=O)C=C3N)[C@H]2O[Si](C)(C)C(C)(C)C)c(=O)n(CCCCCCCCn2c(=O)c(C)cn([C@H]3C[C@H](N=[N+]=[N-])[C@@H](CO)O3)c2=O)c1=O	CEM(TK-) + CEM TK-	ROD	>100 µM
Cc1ccc(C)c(C(C)Sc2cccc[n+]2[O-])c1	CEM	ROD	>20 µg/mL
O=C(O)CCc1ccc(O)c(O)c1	MOLT-4	ROD	10 µg/mL
Nc1nc(OC[C@H]2CC[C@@H](COCc3ccccc3)O2)c2[nH]cnc2n1	CEM	ROD	>50 µM
Cc1cccc(CS(=O)(=O)c2cccc[n+]2[O-])c1	CEM	EHO	14 µg/mL
CC(=O)Oc1ccc(COP(=O)(OCc2ccc(OC(=O)c3ccc(C)cc3)cc2)OP(=O)(O)OCC2C=C[C@H](n3cc(C)c(=O)[nH]c3=O)O2)cc1	CEM	ROD	1.05 µM
Cc1cn(C2OC(CO[Si](C)(C)C(C)(C)C)C3(OS(=O)(=O)C=C3N)C2O[Si](C)(C)C(C)(C)C)c(=O)n(CCCNC(=O)c2ccc(C(=O)c3ccccc3)cc2)c1=O	CEM	ROD	>50 µM
COC(=O)Cn1c(=O)c(C)cn([C@@H]2O[C@H](CO[Si](C)(C)C(C)(C)C)[C@@H](O[Si](C)(C)C(C)(C)C)[C@H]2O)c1=O	CEM	ROD	>2 µM
N#CCc1c(N)nc(N)nc1OCCOCP(=O)(O)O	CEM	ROD	≥300 µM
Nc1cnn([C@H]2C[C@H](O)[C@@H](CO)S2)c(=O)n1	CEM	ROD	>100 µM
CSC1=NS(=O)(=O)N([C@@H]2O[C@H](COC(C)=O)[C@@H](OC(C)=O)[C@H](OC(C)=O)[C@H]2OC(C)=O)C(=O)N1	CEM + CEM-SS	ROD	>200 µg/mL
O=C1c2ccccc2C(=O)N1C1CC2CC3CC(C2)CC1C3	CEM	ROD	>4 µg/mL
C[C@H](Cn1cnc2c(N)ncnc21)OCP(=O)(O)O	CEM	ROD	1.4 µM
N#C/C(=C/c1ccccc1)Sc1cccc[n+]1[O-]	CEM	ROD	>4 µg/mL
Nc1nccc(OC[C@H]2CC[C@@H](CO)O2)n1	CEM	ROD	>250 µM
Cc1ccc2c(c1)C(=O)N(C13CC4CC(CC(C4)C1)C3)C2=O	CEM	ROD	>336 µM
CCC(c1cc(C)ccc1C)S(=O)(=O)c1cccc[n+]1[O-]	CEM	ROD	>20 µg/mL
CC(=O)Nc1nc2c(ncn2C/C=C\CN2C(=O)c3ccccc3C2=O)c(=O)[nH]1	CEM		>100 µM
O=C1c2ccc(O)cc2C(=O)N1C12CC3CC(CC(C3)C1)C2	CEM	ROD	>13.3 µM
Nc1nc(N)c(C2CC2)c(OCCOCP(=O)(O)O)n1	CEM	ROD	≥300 µM
Cc1ccc(Cl)c(C(C)S(=O)c2cccc[n+]2[O-])c1	CEM	ROD	>0.16 µg/mL
Cc1cc(C)c(CS(=O)c2cccc[n+]2[O-])c(C)c1	CEM	ROD	1.5 µg/mL
Oc1cccc(O)c1O	MOLT-4	ROD	9 µg/mL
Cc1ccc(C)c(C(Cl)S(=O)(=O)c2cc(C)cc[n+]2[O-])c1	CEM	EHO	>4 µg/mL
CCCCCCC(=O)Oc1ccc(COP(=O)(OCc2ccc(OC(=O)CCCCCC)cc2)OP(=O)([O-])OC[C@@H]2CC[C@H](n3ccc(=O)[nH]c3=O)O2)cc1	CEM/TK-	ROD	>50 µM
O=C1c2cccc([N+](=O)[O-])c2C(=O)N1C1C2CC3CC(C2)CC1C3	CEM	ROD	>4 µg/mL
Cc1ccc(C)c(CS(=O)c2ncccc2O)c1	CEM	ROD	>100 µg/mL
O=C1c2ccc([N+](=O)[O-])cc2C(=O)N1C12CC3CC(CC(C3)C1)C2	CEM	ROD	>304 µM
Nc1cccc2c1C(=O)N(C13CC4CC(CC(C4)C1)C3)C2=O	CEM	ROD	>4 µg/mL
Cc1cn(C2OC(CO[Si](C)(C)C(C)(C)C)C3(OS(=O)(=O)C=C3N)C2O[Si](C)(C)C(C)(C)C)c(=O)n(CC(=O)N(CCCl)CCCl)c1=O	CEM	ROD	≥125 µM
O=C1c2ccccc2C(=O)N1C/C=C/Cn1cc(F)c(=O)[nH]c1=O	CEM		>100 µM
Cc1cn([C@@H]2O[C@H](CO[Si](C)(C)C(C)(C)C)[C@@H](O)[C@H]2O[Si](C)(C)C(C)(C)C)c(=O)n(CCC(=O)O)c1=O	CEM	ROD	>10 µM
Cc1cn([C@@H]2O[C@H](CO[Si](C)(C)C(C)(C)C)C3(OS(=O)(=O)C=C3N)[C@H]2O[Si](C)(C)C(C)(C)C)c(=O)nc1N	CEM		>13.5 µM
O=C(O)Cc1ccc(O)c(O)c1	MOLT-4	ROD	4 µg/mL
NC/C=C/Cn1cc(C(F)(F)F)c(=O)[nH]c1=O	CEM		>50 µM
Nc1nc(N)nc(OC[C@H]2CC[C@@H](COCc3ccccc3)O2)n1	CEM	ROD	>250 µM
COc1ccc(CS(=O)(=O)c2cc(C(C)(C)C)cc[n+]2[O-])cc1	CEM	ROD	>20 µg/mL
O=C1c2ccccc2C(=O)N1C12CC3CC(CC(C(=O)O)(C3)C1)C2	CEM	ROD	>20 µg/mL
OC[C@@H]1CC[C@H](COc2ncnc3nc[nH]c23)O1	CEM	ROD	>250 µM
O=[N+]([O-])c1ccc[n+]([O-])c1SCc1ccccc1	CEM	ROD	≥20 µg/mL
CCOC(=O)Cc1c(N)nc(N)n(CCOCP(=O)(O)O)c1=O	CEM	ROD	110 µM
CCn1c(=O)cnn([C@H]2C[C@H](O)[C@@H](CO)S2)c1=O	CEM	ROD	>100 µM
C=CCC(c1cc(C)ccc1C)S(=O)(=O)c1cccc[n+]1[O-]	CEM	ROD	≥20 µg/mL
Nc1nc(N)n(CCOCP(=O)(O)O)c(=O)c1-c1ccccc1	CEM	ROD	≥300 µM
COc1ccc(C)cc1CS(=O)(=O)c1cccc[n+]1[O-]	CEM	EHO	44 µg/mL
COC(=O)Cn1c(=O)c(C)cn([C@@H]2O[C@H](CO[Si](C)(C)C(C)(C)C)[C@@H](O)[C@H]2O[Si](C)(C)C(C)(C)C)c1=O	CEM	ROD	>10 µM
CC(c1ccc(F)cc1)S(=O)c1cccc[n+]1[O-]	CEM	ROD	>0.16 µg/mL
Cc1ccc(C)c(C(C)S(=O)(=O)c2ccc(C)c[n+]2[O-])c1	CEM	ROD	>100 µg/mL
Cc1cn(C2OC(CO[Si](C)(C)C(C)(C)C)C3(OS(=O)(=O)C=C3N)C2O[Si](C)(C)C(C)(C)C)c(=O)n(/C=C\CO)c1=O	CEM	ROD	>25 µM
CN(C)c1ccn([C@@H]2O[C@H](CO[Si](C)(C)C(C)(C)C)C3(OS(=O)(=O)C=C3N)[C@H]2O[Si](C)(C)C(C)(C)C)c(=O)n1	CEM		>166 µM
CCCCC(=O)Oc1ccc(COP(=O)(OCc2ccc(OC(=O)c3ccc(C(F)(F)F)cc3)cc2)OP(=O)(O)OCC2C=C[C@H](n3cc(C)c(=O)[nH]c3=O)O2)cc1	CEM/TK-	ROD	6.31 µM
O=C(O)c1cc(O)c(O)c(O)c1	MOLT-4	ROD	8 µg/mL
Cc1ccccc1CS(=O)(=O)c1c(C)ccc[n+]1[O-]	CEM	ROD	≥20 µg/mL
O=c1[nH]c(=S)cnn1[C@H]1C[C@H](O)[C@@H](CO)S1	CEM	ROD	>100 µM
Cc1ccc(C)c(CSc2c(O)ccc[n+]2[O-])c1	CEM	ROD	>20 µg/mL
C[C@H](Cn1cnc2c(N)ncnc21)OCP(=O)(O)O	CEM	ROD	3 µM
Clc1ccc(CSc2ccccn2)cc1	CEM	ROD	≥0.8 µg/mL
Nc1nc(N)nc(OC[C@H]2CC[C@@H](COc3nc(N)nc(N)n3)O2)n1	CEM	ROD	>50 µM
CCCCCCCCn1c(=O)cnn([C@H]2C[C@H](O)[C@@H](CO)S2)c1=O	CEM	ROD	>20 µM
O=C(O)/C=C/c1ccc(O)c(O)c1	MOLT-4	ROD	7 µg/mL
Cc1ccc[n+]([O-])c1S(=O)(=O)Cc1ccccc1Cl	CEM	ROD	>4 µg/mL
O=c1ccn([C@H]2CC[C@@H](CO)O2)c(=O)[nH]1	CEM	ROD	>250 µM
Cc1ccc(C)c(CSc2c(Cl)ccc[n+]2[O-])c1	CEM	EHO	≥20 µg/mL
CC(Cl)(c1ccccc1)S(=O)(=O)c1cccc[n+]1[O-]	CEM	ROD	>20 µg/mL
Cc1cn([C@@H]2O[C@H](COC(=O)C(C)(C)C)[C@@H](O)[C@H]2OC(=O)C(C)(C)C)c(=O)n(CC(=O)O)c1=O	CEM	ROD	>250 µM
COc1cc(OC[C@H]2CC[C@@H](CO)O2)ncn1	CEM	ROD	>50 µM
C=C(C)[C@]1(O)C[C@@H](C)[C@@]2(O)[C@H]([C@H]1OC(=O)/C=C/C=C/CCCCC)[C@@H]1O[C@]1(CO)[C@@H](O)[C@]1(O)C(=O)C(C)=C[C@H]12	C8166	CBL-20	0.05292 µM
O=[N+]([O-])c1ccccc1CS(=O)(=O)c1cccc[n+]1[O-]	CEM	ROD	≥4 µg/mL
Cc1ccc(C)c(CS(=O)(=O)c2ccccn2)c1	CEM	EHO	>20 µg/mL
COC(=O)[C@H](C)NP(=O)(OC[C@@H]1C=C[C@H](n2cc(C)c(=O)[nH]c2=O)O1)Oc1ccc(F)cc1	CEM + CEM TK-	ROD	0.09 µM
CC(C)(C)[Si](C)(C)OC[C@H]1O[C@@H](n2ccc(N)nc2=O)[C@H](O[Si](C)(C)C(C)(C)C)C12OS(=O)(=O)C=C2N	CEM		>350 µM
Cc1cn([C@H]2C=C[C@@H](CO)O2)c(=O)[nH]c1=O	CEM	ROD	0.72 µM
CNOC(=O)Cn1c(=O)c(C)cn([C@@H]2O[C@H](CO[Si](C)(C)C(C)(C)C)[C@@H](O[Si](C)(C)C(C)(C)C)[C@H]2O)c1=O	CEM	ROD	>10 µM
c1ccc(COc2cccnc2SCc2ccccc2)cc1	CEM	ROD	>4 µg/mL
Cc1cccc2c1CP(=O)(OC[C@@H]1CC[C@H](n3ccc(=O)[nH]c3=O)O1)CC2	CEM/TK-	ROD	>50 µM

The last 5 rows once more:

{"SMILES": "CC(C)(C)[Si](C)(C)OC[C@H]1O[C@@H](n2ccc(N)nc2=O)[C@H](O[Si](C)(C)C(C)(C)C)C12OS(=O)(=O)C=C2N", "cell line": "CEM", "value": ">350 µM"}
{"SMILES": "Cc1cn([C@H]2C=C[C@@H](CO)O2)c(=O)[nH]c1=O", "cell line": "CEM", "strain": "ROD", "value": "0.72 µM"}
{"SMILES": "CNOC(=O)Cn1c(=O)c(C)cn([C@@H]2O[C@H](CO[Si](C)(C)C(C)(C)C)[C@@H](O[Si](C)(C)C(C)(C)C)[C@H]2O)c1=O", "cell line": "CEM", "strain": "ROD", "value": ">10 µM"}
{"SMILES": "c1ccc(COc2cccnc2SCc2ccccc2)cc1", "cell line": "CEM", "strain": "ROD", "value": ">4 µg/mL"}
{"SMILES": "Cc1cccc2c1CP(=O)(OC[C@@H]1CC[C@H](n3ccc(=O)[nH]c3=O)O1)CC2", "cell line": "CEM/TK-", "strain": "ROD", "value": ">50 µM"}